The supplement of paper PMC9931576
Changes are numbered by the printed parent chain. Human monoclonal antibodies against the spike receptor-binding domain (heavy:light variable regions). IC50 against pseudoviruses bearing the spike of naturally observed variants; lower = stronger; >10 µg/ml means not reached at the top dose. No active / inactive call. The stated detection limit is 0.0005 µg/ml; values near or below 0.001 µg/ml lie at the floor of the assay.

B1: BD57-0156 (protein)
chain 1: EVQLVESGGGLVQPGGSLRLSCAASGFTFSNYDMHWVRQVPGKGLEWVSVIGTGGDTYYPDSLKGRFTISRENAKTSLYLQMNSLRAGDTAVYYCVRVNYAGELFWYLDLWGRGTLVTVSS
chain 2: DIQMTQSPSSLSASVGDRVTITCRASQSINNYLNWYQQKPGKAPKVLIYSVSKLQSGVPSRFSGSGSGTDYTLTISSLQPEDFATYFCQQSYTSPMYTFGQGTKLEIK
B2: BD57-0159 (protein)
chain 1: EVQLVESGGGLVQPGGSLRVSCSASGFTFSRYSMHWVRQTPGKGLQYVSGISGNGDIRDYADSVKGRFTISRDNSKNTLYLQMSSLSAEDTAVYYCVKDVDTAAVTIFENWGQGTLVTVSS
chain 2: DIQMTQSPSSLSASVGDRVTITCRASQRISGYLNWYQQKPGKAPKLLIYGASSLQSGVPSRFSGSGSGTDFTLTISSLQPEDFATYYCQQSYTTPFTFGQGTKLEIK
B3: BD57-0146 (protein)
chain 1: QVQLVQSGPEVKTPGASVRVSCQASGDTFSTSYIHWVRQAPGQGPEWMGIINPSGGSTTYAQRFQGRVTMTGDMSSTTVYMELRGLTSDDTGVYYCARGGFVPNIRWPQDYWGQGTLITVSS
chain 2: DIQMTQSPSTLSAFVGDRVTITCRASQSIGRYLAWYQQKPGKAPHLLVYQASTLETGVPSRFSGSGSGTQFTLTISSLQPEDFATYYCQQYDSFSWTFGQGTKVEIK
B4: BD57-0174 (protein)
chain 1: QVTLRESGPALVKPTQTLTLTCSFSGFSLSTSGMSVSWIRQPPGEALEWLARIDWDDDTFYSTSLRTRLTISKDTSKNQVVLIMTNMDPVDTATYYCGVWGVIPLLFYFNYWGQGTLVTVSS
chain 2: QSVLTQPPSASETPGQRVTISCSGSSSNIGTETVNWYQQLPGTAPKLLIYNNNQRPSGVPDRFSASKSGTSASLAISGLQSDDESDYYCATWDDTLKGYVFGTGTKVTVL
B5: BD57-0191 (protein)
chain 1: B4 chain 1 with S23T, S37N, F60Y, R66K, I83T, L105V, N110D
chain 2: B4 chain 2 with E32N, T33S, A65G, D82E, S85A, T91A, T95S
B6: BD-494 (protein)
chain 1: EVQLVESGGGLIQPGGSLRLSCAASGFTVSRNYMSWVRQAPGKGLEWVSLIYSGGSTFYADSVKGRFTISRDNSKNTLYLQMNTLRSEDTAVYYCARDLVVYGMDVWGQGTTVTVSS
chain 2: DIQLTQSPSFLSASVGDRVTITCRASQGISSYLAWYQQKPGKAPKLLIYAASTLQVGVPSRFSGSGSGTEFTLTISSLQPEDFATYFCQQLNSYPFTFGPGTKVDIK
B7: BD57-0185 (protein)
chain 1: QVQLQESGPGLVKPSETLSLTCSVSGDSVRSHYWSWIRQPPGKGLEWIGCIYFSGRTNYNPSLESRVTISVDTSKNQVSLRLTSVTAADTAVYYCVTSGPNMMTPGGVIADDAFDIWGQGTMNIVSS
chain 2: DIQMTQSPSSLSASVGDRVTITCRASQSINNYLNWYQQKPGKAPKLLIYAASSLQSGVPSRLSGSGSGTDFTLSISSLQPEDSATYYCQQSYSTPWTFGQGTKVAIK

target: SARS-CoV-2 Omicron BA.1 spike pseudovirus; experiment: pseudovirus neutralization IC50; higher = weaker neutralization
Description: (§1)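 Single-round VSV luciferase pseudovirus mixed with antibody dilutions for 1 h and put on Huh-7 cells for about a day; IC50 from the dose curve.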

Q: Which “pseudovirus neutralization IC50” value does the source give for B1 here?
A: > 10 µg/mL

Q: B2 was tested. Which “pseudovirus neutralization IC50” value did it give?
A: > 10 µg/mL

Q: B3 was tested. Which “pseudovirus neutralization IC50” value did it give?
A: 1.45 µg/mL

Q: With B4 as the binder, how does the “pseudovirus neutralization IC50” value read?
A: > 10 µg/mL

Q: With B5 as the binder, how does the “pseudovirus neutralization IC50” value read?
A: 3.23 µg/mL

Q: For B6, which “pseudovirus neutralization IC50” value is on record?
A: > 10 µg/mL

Q: With B7 as the binder, how does the “pseudovirus neutralization IC50” value read?
A: 0.0651 µg/mL

target: SARS-CoV-2 Omicron BA.2 spike pseudovirus; experiment: as above
Description: as §1

Q: B1 was tested. Which “pseudovirus neutralization IC50” value did it give?
A: > 10 µg/mL

Q: For B2, which “pseudovirus neutralization IC50” value is on record?
A: > 10 µg/mL

Q: How did the “pseudovirus neutralization IC50” value turn out when B3 was run?
A: 2.09 µg/mL

Q: With B4 as the binder, how does the “pseudovirus neutralization IC50” value read?
A: 0.0366 µg/mL

Q: Which “pseudovirus neutralization IC50” value does the source give for B5 here?
A: 0.0202 µg/mL

Q: B6 was tested. Which “pseudovirus neutralization IC50” value did it give?
A: > 10 µg/mL

Q: Which “pseudovirus neutralization IC50” value does the source give for B7 here?
A: 0.0547 µg/mL

target: SARS-CoV-2 Omicron BA.2.75 spike pseudovirus; experiment: as above
Description: as §1

Q: Which “pseudovirus neutralization IC50” value does the source give for B1 here?
A: > 10 µg/mL

Q: How did the “pseudovirus neutralization IC50” value turn out when B2 was run?
A: > 10 µg/mL

Q: How did the “pseudovirus neutralization IC50” value turn out when B3 was run?
A: 1.86 µg/mL

Q: Which “pseudovirus neutralization IC50” value does the source give for B4 here?
A: 2.78 µg/mL

Q: How did the “pseudovirus neutralization IC50” value turn out when B5 was run?
A: 3.64 µg/mL

Q: B6 was tested. Which “pseudovirus neutralization IC50” value did it give?
A: > 10 µg/mL

Q: Which “pseudovirus neutralization IC50” value does the source give for B7 here?
A: 0.0229 µg/mL

target: SARS-CoV-2 Omicron BA.5 spike pseudovirus; experiment: as above
Description: as §1

Q: Which “pseudovirus neutralization IC50” value does the source give for B1 here?
A: > 10 µg/mL

Q: For B2, which “pseudovirus neutralization IC50” value is on record?
A: > 10 µg/mL

Q: For B3, which “pseudovirus neutralization IC50” value is on record?
A: 3.86 µg/mL

Q: With B4 as the binder, how does the “pseudovirus neutralization IC50” value read?
A: 0.0364 µg/mL

Q: Which “pseudovirus neutralization IC50” value does the source give for B5 here?
A: 0.0218 µg/mL

Q: How did the “pseudovirus neutralization IC50” value turn out when B6 was run?
A: > 10 µg/mL

Q: With B7 as the binder, how does the “pseudovirus neutralization IC50” value read?
A: 0.0786 µg/mL

target: SARS-CoV-2 Omicron BQ.1.1 spike pseudovirus; experiment: as above
Description: as §1

Q: With B1 as the binder, how does the “pseudovirus neutralization IC50” value read?
A: > 10 µg/mL

Q: How did the “pseudovirus neutralization IC50” value turn out when B2 was run?
A: > 10 µg/mL

Q: How did the “pseudovirus neutralization IC50” value turn out when B3 was run?
A: 5.63 µg/mL

Q: B4 was tested. Which “pseudovirus neutralization IC50” value did it give?
A: > 10 µg/mL

Q: For B5, which “pseudovirus neutralization IC50” value is on record?
A: > 10 µg/mL

Q: How did the “pseudovirus neutralization IC50” value turn out when B6 was run?
A: > 10 µg/mL

Q: For B7, which “pseudovirus neutralization IC50” value is on record?
A: > 10 µg/mL

target: SARS-CoV-2 Omicron XBB spike pseudovirus; experiment: as above
Description: as §1

Q: Which “pseudovirus neutralization IC50” value does the source give for B1 here?
A: > 10 µg/mL

Q: B2 was tested. Which “pseudovirus neutralization IC50” value did it give?
A: > 10 µg/mL

Q: How did the “pseudovirus neutralization IC50” value turn out when B3 was run?
A: 3.93 µg/mL

Q: Which “pseudovirus neutralization IC50” value does the source give for B4 here?
A: > 10 µg/mL

Q: With B5 as the binder, how does the “pseudovirus neutralization IC50” value read?
A: 4.14 µg/mL

Q: With B6 as the binder, how does the “pseudovirus neutralization IC50” value read?
A: > 10 µg/mL

Q: For B7, which “pseudovirus neutralization IC50” value is on record?
A: 2.22 µg/mL

target: SARS-CoV-2 early D614G spike pseudovirus; experiment: as above
Description: as §1

Q: How did the “pseudovirus neutralization IC50” value turn out when B1 was run?
A: > 10 µg/mL

Q: With B2 as the binder, how does the “pseudovirus neutralization IC50” value read?
A: > 10 µg/mL

Q: Which “pseudovirus neutralization IC50” value does the source give for B3 here?
A: 3.7 µg/mL

Q: Which “pseudovirus neutralization IC50” value does the source give for B4 here?
A: 0.0529 µg/mL

Q: With B5 as the binder, how does the “pseudovirus neutralization IC50” value read?
A: 0.0288 µg/mL

Q: How did the “pseudovirus neutralization IC50” value turn out when B6 was run?
A: 0.343 µg/mL

Q: How did the “pseudovirus neutralization IC50” value turn out when B7 was run?
A: 0.0178 µg/mL
